Experimental findings from article PMC5723134 are described below.

Tags and fusion partners may be left off the protein sequences shown. For at least one entry, the source does not settle the construct or the ends of the probe.

This data set concerns T1, His6-LrhA (Pantoea stewartii subsp. stewartii DC283).
T1 sequence (looked up): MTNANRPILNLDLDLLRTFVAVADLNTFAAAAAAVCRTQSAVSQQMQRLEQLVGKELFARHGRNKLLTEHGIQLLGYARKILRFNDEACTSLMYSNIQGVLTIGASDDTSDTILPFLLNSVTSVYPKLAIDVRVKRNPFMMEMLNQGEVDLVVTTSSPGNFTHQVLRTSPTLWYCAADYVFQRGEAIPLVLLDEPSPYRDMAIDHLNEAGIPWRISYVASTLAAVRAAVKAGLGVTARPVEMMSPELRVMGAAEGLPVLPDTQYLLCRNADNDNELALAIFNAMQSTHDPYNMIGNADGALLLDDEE
Kind of data set: EMSA. Conditions: 5 nM DNA, 10 mM Tris-HCl (pH not given), 50 mM NaCl, 1 mM MgCl2, 0.5 mM EDTA, 0.5 mM DTT, 10% glycerol, 50 ug/ml poly(dI-dC), 150 ug/ml BSA, 5 nM FAM-DNA, room temperature 1 h, recombinant protein, residues 1-307, protein details: N-terminal His6 (pET28a), label: 5'-FAM (reverse primer), probe letters rebuilt from the primers and the genome. On the technique in general: Mobility shift assays separate free from complexed probe on a gel.

As for “GTTAGCGACCCTCACCAATTTGTTATCCGTTTAAATCAACGATGAATTACGCGTTGCGGTACGAGAAGATTTCCAAAGCGCTTTTTTTTATTCTGCTGATGCAGCGTGGCAACGGGCAAACGCCCGTAAAAGTCTTCTTCCTTGACCCGTTCTGCAAAATTTTTTCTTACTCTGGCCCCACACCTGGCGTCGAATCCACATCGGGTATTGATGTAAAGTCGTACCGGCGCGAAACACCGTTTTTGGGAGCAATGTCACTATCGCTGAAAACCCAGAGTTTTCTGATAGGACAAGTCTTAAAAACATTTGTTTCACGAAAGTGTAAGGCTGAAGAGTGAGTTGACAATGCCGGAAAAAACATTTTCTGACAAGAAAAATCACACAATATTTTTTCTTGTTTAATTTCAATGCATTGCCGATTTTATCACCAAAACAACCCTGTCGATGACTCTGTGTACCGCCCGACTAAAATACGCGATGCGCGGTTTAATAAGAATTATTTTAAGACTTATCGCACATTTATCAGAATATCCTTAGTTGATTTCTGGAAAATATGGTTTGAAAAATGCCCGGATAGTTGTGAATTTCCAATTC (double strand) [PrcsA]”, the binding result (LrhA 0-1000 nM) is reported as “binds”.

On to “ACTAGTCATAGCGTAAGTAGGGTGTGACAGCCGTGCATTAATCGTTAATACGGTTAACTATTTTATCTCTAAGGACTTTTTTTCGTTTTTTGAAGCCAGGCTAAAAAACAGAGAGCATCTTTAGTACAGGTTTACCTGTCTAAAAGTCTTATTCACTGTTTTTGGGCGGGTTGAATGCGCACAGGACGTGCAGGACGTGTTGGAAAATGCGATCCGATCAAAATTTGCAATGCTTTTCATAAAAACATTTCCATTTTGCGGTCAAAAATGATTAAGTATAATTTACTATTTGATGTGATTAAACGCGATACAGCGTGTGTGTATGACAGACCCATTTACCCCGGCGTAATGACTTTTTTGGGGTTGAAAAAGACAACTACACAGCTTCCCGCAATTTTGCATCCAGTGCCTTCGGTACAGAAGTTGTCTCTGTCTTCAGGTGACGGCTTCCGTGTTTTACAGGAACGTGCCGTGCGCCTTCGTAAGTAAATTTTATGTCGGCCCTGTGTTGGGACGGCATGAAGCATCATTACCGCTTATCGCTTTGATAAGCTTGTAATAACACCAGGATAGTAGTTCTTAAAACTC (double strand) [PlrhA]”, for which the binding result (LrhA 0-800 nM) is “binds”.

Take “CGGTGTTTCACGCGATAGTGTCCATTAAAAAATGATGGACACTATTTTCCCGGAACCGGAGCCCGCTGCACAGACGGTTTAAATGTGACGCTTACAATCAGCCGCCCCCTGCGTTCTGTTGTGAAGACGCTCTTTCCGAGATCGTCCCGTAACGCCTGCCAGTAACAGGCCACAGTGTGGCACTAACACAAACTCACCACAGTAATCCCTGCCGAGCCGTTCGCCCTCATGAGAAAACATTAATTAAATTTACCATGAATACAGTAAGGATAATAAAGTTTTATGACACTATAAATAAGACCAGCCTCCCTTTCCTCGCCTGGATTTTATGAGAAAAATCACACTTTAACGGCCTTTAAAGTCACTTAATTTTCCATGAAAACTAAGGTGATAGAGAAAAATCAGGATCATTTAATTTATAAACACCTTTAAATCAATAAGATGAAAGATTGCGGATTAAAAACAGCGATAAAACATAAAAATAACTTAATGATTACCATTTGCTGTGATATACATTAGAAAACTTTAATATTTAATGATGTTTTCTGGTGGGGAGAGTGATATGAGTCACG (double strand) [PCKS_5211]”: where the note is “LrhA 0-1000 nM”, the binding result is recorded as “binds”.

As to “TAGCAACACCGGCAGCTAACAGAAAAAGCTTGAATTTCATAACCATTCCTTACTAATTATTTAGGGTCAGTGCTTTTTCACCTGATGGTATAATGCAAAAACCTCGAAAAAATAACATTAAATCGCCAGATAACAGCAACCTGCCGTCACTCTCTCCAGCGCCCCAGAAAAAAGGGGTGCTGATTTATATTAGTTTTTTTTACTATACATCAGCGCAGGCAAAGTGGCGAAACTCATCGATAAATTTTTTATTATTTTGTTACATTGCCTGCCGCAACGGCGAATCGACAGGCGATCACGGGCTGAAGACGCAGAGCCGCAGAACTGTTTTGCCTGTCTGTGGTGTCGCTGTTATGTCTCCGTCAGTTTGGTATGAGAAAGAAGCGCATGCGGGATGTGAGGCTGAAAAGCGGCAGATGCGCTATCTTTGAATAGCTGCTGTCTGCCCGTGCGGTAAAGGTCGTCAGTGCAGGCATAACGTTGTGGTCAGGCAGCAAAACGGCGGCTCATATGCCAGCTAAAAGAATTGATTGAGCCGGACGCTTGCAGGTATCGGAAAGCGCTATTAAAAAAGCCTAATTTAGTCGTTTCCCGCGCCGATAAAAGGGTAACAAGGCGAAAATTCCTTTTCATCATCTCTTTAACAGCGGCGTGTTCGGCGCTATTCGGAAATC (double strand) [PCKS_0458]”, the binding result (LrhA 0-1000 nM) was “binds”.
